A mixed list of measured activities; the numbers were collected in NIAID ChemDB.

Common to all: tests in culture; agent: HIV-1; cells: PBMC; measure: EC50

ECn: concentration that inhibits the pathogen or its effect by n%. Blank or dashed fields: not listed here. Rows are shuffled and stem from different studies. a–b is a range or a potency band.

smiles	strain	read by	result
O=c1ccn([C@H]2O[C@@H](CO)CC2(F)F)c(=O)[nH]1	LAV		>100 µM
COC(=O)[C@H](C)NP(=O)(OC[C@@H]1CC[C@H](n2cc(C)c(=O)[nH]c2=O)O1)Oc1ccc(Cl)cc1	IIIB	p24	2.1 µM
Nc1ccc2c(O)c(Br)c(S(=O)(=O)O)cc2c1Br	BaL	p24	~125 µM
COC(=O)[C@H](C)NP(=O)(OC[C@@H]1C=C[C@H](n2cc(C)c(=O)[nH]c2=O)O1)Oc1ccccc1	IIIB	p24	0.002 µM
O=C(O)c1cn(-c2ccc(Cn3cncn3)cc2)c2c(OC(F)F)c(N3CC=C(c4ccccc4)CC3)c(F)cc2c1=O	BaL	p24	~0.015 µM
COC(=O)[C@H](C)NP(=O)(OC[C@H]1O[C@@H](n2cc(C)c(=O)[nH]c2=O)C[C@@H]1N=[N+]=[N-])Oc1ccccc1	IIIB	p24	0.055 µM
Nc1nccc2c1ncn2[C@@H]1C[C@H](CO)[C@@H](O)[C@H]1O	A018	p24	0.22 µM
O=c1ccn([C@@H]2O[C@@H](CO)CC2(F)F)c(=O)[nH]1	LAV		>100 µM
C=Cn1cc(C(=O)O)c(=O)c2ccc(N3CCN(c4ccccn4)CC3)cc21	IIIB		0.61 µM
COc1ccccc1N1CCN(c2c(F)cc3c(=O)c(C(=O)O)cn(C)c3c2CN(C)C)CC1	IIIB	p24	0.13 µM
COC(=O)[C@H](C)NP(=O)(OC[C@H]1O[C@@H](n2cc(C)c(=O)[nH]c2=O)C[C@@H]1N=[N+]=[N-])Oc1ccc(OC)cc1	IIIB	p24	0.057 µM
Nc1ncnc2c1ncn2[C@@H]1C=C(CO)[C@@H](O)[C@H]1O	A012	p24	0.011 µM
Nc1nc2c(ncn2C[C@H]2C[C@H]2[C@H](O)CO)c(=O)[nH]1	LAV		>100 µM
CCCOC(=O)C(C)(C)NP(=O)(CO[C@H](C)Cn1cnc2c(N)ncnc21)C(C#N)C#N		RT activity / fluorescence	>2.101 µM
Cc1cn([C@H]2O[C@@H](CO)CC2(F)F)c(=O)[nH]c1=O	LAV		>100 µM
Cc1cc(C)c(S(=O)(=O)OCC2OC3OC4C(CO)OC(OC5C(CO)OC(OC6C(CO)OC(OC7C(CO)OC(OC8C(CO)OC(OC9C(C[n+]%10ccccc%10)OC(OC2C(O)C3O)C(O)C9O)C(O)C8O)C(O)C7O)C(O)C6O)C(O)C5O)C(O)C4O)c(C)c1	KK-5(AC)		180 µg/mL
COC(=O)[C@H](C)NP(=O)(OC[C@@H]1CC[C@H](n2cc(C)c(=O)[nH]c2=O)O1)Oc1ccc(OC)cc1	IIIB	p24	1.3 µM
Cc1cn(C[C@H]2C[C@H]2CO)c(=O)[nH]c1=O	LAV		>100 µM
Nc1ncnc2c1ncn2[C@H]1O[C@@H](CO)CC1(F)F	LAV		>100 µM
CC1=CC[C@]2(C)CC(=O)[C@]3(C)C(=O)C=C(C(C)C)[C@@H]3[C@H]2CC1	LAV	RT activity	42.1 µM
COC(=O)[C@H](C)NP(=O)(OC[C@@H]1C=C[C@H](n2cc(C)c(=O)[nH]c2=O)O1)Oc1ccc(OC)cc1	IIIB	p24	0.004 µM
Cc1cn([C@H]2C=C[C@@H](CO)O2)c(=O)[nH]c1=O	JEW	p24	0.098 µM
Nc1ccn([C@@H]2S[C@H](CO)C=C2F)c(=O)n1	xxBRU	RT activity	<5 µM
COC(=O)C(C)NP(=O)(OC[C@@H]1C=C[C@H](n2cc(C)c(=O)[nH]c2=O)O1)Oc1ccc(Br)cc1	IIIB	p24	<0.001 µM
O=c1[nH]c(=O)n([C@H]2O[C@@H](CO)CC2(F)F)cc1I	LAV		>100 µM
COc1cc2c(OC3OC(C)C(OC4OC(CO)C(O)C(O)C4O)C(O)C3OC(C)=O)c3c(c(-c4ccc5c(c4)OCO5)c2cc1OC)C(=O)OC3	SF162	p24 / ELISA	0.014 µM
N=C1Sc2ccccc2C2=NCCCN12	RU132	β-galactosidase	0.2 µM
Cc1cn([C@@H]2O[C@@H](CO)[C@H](O[Si](C)(C)C(C)(C)C)C2(F)F)c(=O)[nH]c1=O	LAV	RT activity	>100 µM
COC(=O)C(C)NP(=O)(OC[C@@H]1C=C[C@H](n2cc(C)c(=O)[nH]c2=O)O1)Oc1ccc(OC)cc1	IIIB	p24	0.004 µM
CC(C)(C)[Si](C)(C)O[C@H]1[C@H](CO)O[C@H](n2ccc(N)nc2=O)C1(F)F	LAV	RT activity	>100 µM
O=c1ccn(C[C@H]2C[C@H]2[C@H](O)CO)c(=O)[nH]1	LAV		>100 µM
Cc1cn([C@H]2C[C@H](N=[N+]=[N-])[C@@H](CO)O2)c(=O)[nH]c1=O		RT activity	0.00037 µM
Nc1ncnc2c1ncn2[C@@H]1O[C@@H](CO)[C@H](O)C1(F)F	LAV	RT activity	>100 µM
COC(=O)C(C)NP(=O)(OC[C@@H]1C=C[C@H](n2cc(C)c(=O)[nH]c2=O)O1)OC1C=CC=CC1(OC)OC	IIIB	p24	0.006 µM
CN(C[C@@H](CCN1CCC2(CC1)CS(=O)c1ccccc12)c1ccc(Cl)c(Cl)c1)S(=O)(=O)c1ccc(-c2ccccn2)s1	YU2		<12.5 µM
[N-]=[N+]=N[C@H]1C[C@H](n2ccc(=O)[nH]c2=O)O[C@@H]1COP(=O)(O)OP(=O)(O)O[C@H]1O[C@H](CO)[C@H](O)[C@H](O)[C@H]1O	LAV	RT activity	0.02–0.41 µM
COC(=O)[C@H](C)NP(=O)(OC[C@@H]1C=C[C@H](n2cc(C)c(=O)[nH]c2=O)O1)Oc1cccc(Br)c1	IIIB	p24	0.002 µM
Nc1ncnc2c1ncn2[C@H]1CC[C@@H](CO)O1	A012	p24	6.3 µM
C/C(=N\NC(=O)CN1c2c(-c3ccccc3)n[nH]c2-c2ccccc2S1(=O)=O)c1sc(N)nc1C		RT activity	3.8 µM
CC(=O)N1CCC(C(=O)N(CCCN2CCC(Cc3ccc(C(N)=O)cc3)CC2)c2ccc(C)c(Cl)c2)CC1	HTN Clinical isolates	p24	0.0009 µM
Cc1ccc(-c2ccc3c(c2)C=C(C(=O)Nc2ccc(C[N+](C)(C)C4CCOCC4)cc2)CCC3)cc1	TB5 CLADE C	p24	<1 µM
CN(C[C@@H](CCN1CCC2(CC1)CS(=O)c1ccccc12)c1ccc(Cl)c(Cl)c1)S(=O)(=O)c1ccc(-c2ccon2)s1	YU2		<12.5 µM
Nc1nc(=O)n([C@@H]2O[C@@H](CO)CC2(F)F)cc1I	LAV		>100 µM

Again, the opening 4 rows:

| smiles | strain | read by | result |
|---|---|---|---|
| O=c1ccn([C@H]2O[C@@H](CO)CC2(F)F)c(=O)[nH]1 | LAV |  | >100 µM |
| COC(=O)[C@H](C)NP(=O)(OC[C@@H]1CC[C@H](n2cc(C)c(=O)[nH]c2=O)O1)Oc1ccc(Cl)cc1 | IIIB | p24 | 2.1 µM |
| Nc1ccc2c(O)c(Br)c(S(=O)(=O)O)cc2c1Br | BaL | p24 | ~125 µM |
| COC(=O)[C@H](C)NP(=O)(OC[C@@H]1C=C[C@H](n2cc(C)c(=O)[nH]c2=O)O1)Oc1ccccc1 | IIIB | p24 | 0.002 µM |